# Laboratory results taken from PubChem BioAssay AID588520 (NMMLSC, 2011).
# The list shows a part of the results, in another mix than the full data. Calls of active or inactive are those of the source. Rule as the data show it: active = Nile Red retention ratio vs DMSO above about 190%; inactive = the rest.
# Tested on: Candida albicans drug resistance protein 2 (Cdr2) efflux pump, expressed in S. cerevisiae
# Test: Cdr2 pump blockade via Nile Red retention – S. cerevisiae AD/CaCDR2, flow cytometry, cherry pick 1, singleplex, confirmation (AID 588520);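 also: higher ratio means more blocking of Cdr2 efflux of the dye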
# Conditions: at 10 µM, hits give high values
row,SMILES,Nile Red retention ratio vs DMSO
1,O=P(Nc1nccs1)(c1ccccc1)c1nc2ccccc2s1 (stereo unspecified),inactive: 97.7%
